Anti-infective test results gathered from many reports (values: NIAID ChemDB through PubChem).

Common to all: tests in culture; species: Candida glabrata; read by: broth dilution; read-out: MIC

Conditions beyond the fields shown may differ between rows. Blank or dashed fields: not listed here.

smiles,conditions,strain or isolate,result
COc1cccc(OCC(=O)c2ccccc2)c1,24 h,ATCC 90030,>125 µg/mL
O=c1c(OC2CCCC2)c(N2CCN(S(=O)(=O)NCc3ccccc3)CC2)cnn1-c1cccc(Cl)c1,-,C110,1 µg/mL
C[C@@H](c1ncncc1F)[C@](O)(Cn1cncn1)c1ccc(F)cc1F,-,ATCC 66032,1 µg/mL
O/N=C(/COc1ccc(F)cc1)c1ccccc1,48 h,ATCC 90030,31.25 µg/mL
C[C@@H](c1ncncc1F)[C@](O)(Cn1cncn1)c1ccc(F)cc1F,pH 6,40 isolates,2 µg/mL
O=C(N/N=C/c1ccc([N+](=O)[O-])cc1)c1ccc(CNc2nc3ccccc3[nH]2)cc1,-,ATCC 36583,25 µg/mL
CCC(C)n1ncn(-c2ccc(N3CCN(c4ccc(OC[C@H]5CO[C@](Cn6cncn6)(c6ccc(Cl)cc6Cl)O5)cc4)CC3)cc2)c1=O,pH 6,40 isolates,>16 µg/mL
CCCCCCCCCCCCCCCC(=O)NC(CCCCN)C(=O)NC(CCCCN)C(N)=O,-,4849,4 µg/mL
O=C(O)c1ccc(/C=N/NC(=O)c2ccc(CNc3nc4ccccc4[nH]3)cc2)cc1,-,ATCC 36583,50 µg/mL
O=P(O)(O)OP(=O)(O)OP(=O)(O)O,-,MC426,390 µg/mL
OC(CCn1ccnc1)c1cccc(C(O)c2ccc(Cl)c(Cl)c2)c1,-,RTCC 1054,64 µg/mL
CC[C@@H]([C@H](C)O)n1ncn(-c2ccc(N3CCN(c4ccc(OC[C@@H]5CO[C@@](Cn6cncn6)(c6ccc(F)cc6F)C5)cc4)CC3)cc2)c1=O,pH 4,40 isolates,4 µg/mL
O/N=C(\COc1ccccc1)c1ccccc1,24 h,ATCC 90030,>125 µg/mL
CCC(C)CC(C)CCCCCCCCC(=O)N[C@H]1C[C@@H](O)[C@H](NCCN)NC(=O)[C@@H]2[C@@H](O)CCN2C(=O)[C@H]([C@H](O)CCN)NC(=O)[C@H]([C@H](O)[C@@H](O)c2ccc(O)cc2)NC(=O)[C@@H]2C[C@@H](O)CN2C(=O)[C@H]([C@@H](C)O)NC1=O,pH 7,40 isolates,0.5 µg/mL
COc1ccccc1OC/C(=N/O)c1ccccc1,48 h,ATCC 90030,>125 µg/mL
CCC(C)CC(C)CCCCCCCCC(=O)N[C@H]1C[C@@H](O)[C@H](NCCN)NC(=O)[C@@H]2[C@@H](O)CCN2C(=O)[C@H]([C@H](O)CCN)NC(=O)[C@H]([C@H](O)[C@@H](O)c2ccc(O)cc2)NC(=O)[C@@H]2C[C@@H](O)CN2C(=O)[C@H]([C@@H](C)O)NC1=O,-,8653,4 µg/mL
O=C(COc1cccc(Cl)c1)c1ccccc1,48 h,ATCC 90030,>125 µg/mL
O=C(CCn1ccnc1)c1ccc(-c2ccccc2)cc1,-,RTCC 1040,4 µg/mL
CCOc1ccc(/C=N/NC(=O)c2ccc(CNc3nc4ccccc4[nH]3)cc2)cc1,-,ATCC 36583,100 µg/mL
O=C1c2ccccc2CC1Cn1ccnc1,-,RTCC 1054,>64 µg/mL
O=C(N/N=C/c1ccccc1)c1ccc(CNc2nc3ccccc3[nH]2)cc1,-,ATCC 36583,50 µg/mL
O=C(CCn1ccnc1)c1cccc(C(O)c2ccc(Cl)c(Cl)c2)c1,-,RTCC 1040,64 µg/mL
COc1cc(OCC(=O)c2ccccc2)cc(OC)c1OC,24 h,ATCC 90030,>125 µg/mL
O=C(CCn1ccnc1)c1cccc(O)c1,-,RTCC 1054,>64 µg/mL
Nc1ncccc1-c1cc(Cc2ccc(COc3ccccn3)cc2)no1,-,8658,0.03 µg/mL
O=c1c(N2CCOCC2)c(N2CCN(S(=O)(=O)Cc3ccccc3)CC2)cnn1-c1ccccc1,-,C454,3.13 µg/mL
OC(CCn1ccnc1)c1ccc(-c2ccccc2)cc1,-,RTCC 1054,>64 µg/mL

The last 4 rows once more:

smiles	conditions	strain or isolate	result
O=C(CCn1ccnc1)c1cccc(O)c1	-	RTCC 1054	>64 µg/mL
Nc1ncccc1-c1cc(Cc2ccc(COc3ccccn3)cc2)no1	-	8658	0.03 µg/mL
O=c1c(N2CCOCC2)c(N2CCN(S(=O)(=O)Cc3ccccc3)CC2)cnn1-c1ccccc1	-	C454	3.13 µg/mL
OC(CCn1ccnc1)c1ccc(-c2ccccc2)cc1	-	RTCC 1054	>64 µg/mL